{"source": "patent US5498602A", "about": "“Oligosaccharide aromatic glycoside and sulfate thereof” (priority 1991, dated 1996)"}
{"tested_on": "HIV", "assay": "Anti-AIDS (HIV) activity in HIV-infected MT-4 cells (MTT method)", "format": "cell-based", "settings": "CC50/EC50, MT-4 cells", "method": "Evaluation method: Test substances having various concentrations were placed in a 96-well microtiter plate along with HIV-infected MT-4 cells (2.5×10^4 /well, MOI: 0.01) immediately after the infection thereof. In order to ascertain the cytotoxicity of the test substance with respect to the MT-4 cells, non-infected cells were cultured in an identical manner along with the test substances of various concentrations. After culturing for 5 days at a temperature of 37° C. in a CO2 incubator, the number of living cells was determined using the MTT method. The antiviral activity is shown in terms of the concentration which prevented 50% of the cytopathogenic effects of the HIV virus (EC50 : 50% effective concentration) and the cytotoxicity is shown in terms of the concentration at which the cytotoxicity of the test substance reaches 50% (CC50 : 50% cytotoxic concentration).Furthermore, the selectivity index (S.I.) is calculated as CC50 /EC50.\n(Reference: Pauwels, et al., J. Viral Methods, 20 (1988) 309-321). Using this method, the compounds of Examples 30-43 were tested for anti-HIV activity. The compounds shown in Table 2 (Examples 35~38) are produced by means of novel sulfation methods. For the purposes of comparison, the conventional anti-AIDS agents AZT (3'-azido-2',3'-dideoxythymidine) and dextran sulfate were also tested, and the results thereof are appended as comparative data."}
{"substance": "octyloxyphenyl β-D-galactopyranosyl-(1→4)-β-D-galactopyranosyl-(1→4)-β-D-glucopyranoside sulfate [Example 41]", "SI (selectivity index, CC50/EC50)": "> 892"}
{"substance": "heptyloxyphenyl β-D-galactopyranosyl-(1→4)-{β-D-galactopyranosyl-(1→4)}2 -β-D-glucopyranoside sulfate [Example 42]", "SI (selectivity index, CC50/EC50)": "> 4348"}
{"substance": "p-octylphenyl β-D-glucopyranosyl-(1→3)-{β-D-glucopyranosyl (1→3)}3 -β-D-glucopyranoside sulfate [Example 37]", "SI (selectivity index, CC50/EC50)": "> 12500"}
{"substance": "sulfated p-heptyloxyphenyl β-D-glucopyranosyl-(1→3)-{β-D-glucopyranosyl-(1→3)}3 -β-D-glucopyranoside [Example 32]", "SI (selectivity index, CC50/EC50)": "> 1389"}
{"substance": "p-pentylphenyl β-D-glucopyranosyl-(1→3)-{β-D-glucopyranosyl (1→3)}3 -β-D-glucopyranoside sulfate [Example 31]", "SI (selectivity index, CC50/EC50)": "> 1333"}
{"substance": "p-(1,1,3,3-tetramethylbutyl)phenyl β-D-galactopyranosyl-(1→4)-{β-D-galactopyranosyl-(1→4)}2 -β-D-glucopyranoside sulfate [Example 43]", "SI (selectivity index, CC50/EC50)": "> 25000"}
{"substance": "p-octylphenyl β-D-glucopyranosyl-(1→3)-{β-D-glucopyranosyl (1→3)}3 -β-D-glucopyranoside sulfate [Example 30]", "SI (selectivity index, CC50/EC50)": "> 1612"}
{"substance": "octylphenyl β-D-galactopyranosyl-(1→4)-{β-D-galactopyranosyl-(1→4)}2 -β-D-glucopyranoside sulfate [Example 39]", "SI (selectivity index, CC50/EC50)": "> 1219"}
{"substance": "p-heptyloxyphenyl β-D-glucopyranosyl-(1→3)-{β-D-glucopyranosyl-(1→3)}3 -β-D-glucopyranoside sulfate [Example 33]", "SI (selectivity index, CC50/EC50)": "> 1298"}
{"substance": "p-heptyloxyphenyl β-D-glucopyranosyl-(1→3)-{β-D-glucopyranosyl (1→3)}3 -β-D-glucopyranoside sulfate [Example 36]", "SI (selectivity index, CC50/EC50)": "> 16100"}
{"substance": "p-(1,1,3,3-tetramethylbutyl)phenyl β-D-glucopyranosyl-(1→3)-{β-D-glucopyranosyl-(1→3)}3 -β-D-glucopyranoside sulfate [Example 35]", "SI (selectivity index, CC50/EC50)": "> 26300"}
{"substance": "p-octylphenyl β-D-glucopyranosyl-(1→3)-{β-D-glucopyranosyl (1→3)}5 -β-D-glucopyranoside sulfate [Example 34]", "SI (selectivity index, CC50/EC50)": "> 3226"}
{"substance": "dextran sulfate [reference compound]", "SI (selectivity index, CC50/EC50)": 2000}
{"substance": "p-(1,1,3,3-tetramethylbutyl)phenyl β-D-glucopyranosyl-(1→3)-{β-D-glucopyranosyl-(1→3)}m -β-D-glucopyranoside sulfate [Example 38]", "SI (selectivity index, CC50/EC50)": "> 45400"}
{"substance": "octyloxyphenyl β-D-galactopyranosyl-(1→4)-{β-D-galactopyranosyl-(1→4)}2 -β-D-glucopyranoside sulfate [Example 40]", "SI (selectivity index, CC50/EC50)": "> 1052"}
